Residues, ends and D or L forms follow the SMILES beside them.
Columns and labels:
[1] = 1D 1H NMR line shape analysis, liposome titration; type: binding; details: DMPC liposomes; fit parameter of Equation (6), used for all proton signals
[2] = tested on: E. coli ATCC 25922 lysate; assay: NMR line shape analysis with sonicated cell lysate; type: binding; details: fit parameter of Equation (6)
Procedure: NMR spectra were acquired on a Bruker Avance III HD spectrometer operating at 600 MHz for ^1H, equipped with an inverse TCl cryo probe. All NMR spectra were acquired at 298 K using 5 mm tubes using standard pulse programs.
E. coli strains ATCC 25922, CCUG 70662, and NR 698 were grown until OD600 ≈ 0.6–0.8 in standard Lysogeny Broth at 37 °C from overnight colonies on agar plates. This allowed bacterial cultures to reach an exponential state of growth. CCUG 70662 was cultivated with and without 4 µg/mL of colistin in both agar and broth to allow for modification of the lipid A part of LPS [33]. After that, cells were carefully centrifuged by 6000× g for 10 min, the supernatant was discarded, and the cell pellet was resuspended in 10 mM Tris buffer with 100 mM NaCl and pH 7.4. The process was repeated two more times to wash out broth components and leftover colistin. Cells were then resuspended in 1 mL of Tris buffer, and OD600 was checked by dilution of 100 µL of the sample. The number of cells was estimated from OD600 of the sample using the formulation presented by Beal et al. (2022). Furthermore, lipid concentration was estimated to be 50 mmol per bacterial cell. The part of samples was diluted to OD = 1 in Tris buffer, and zeta potential was measured on Malvern Zetasizer Nano (Malvern Ins., Malvern, UK). The concentrated cell sample was then titrated (from 5 to 160 µL) into the 500 µL of peptide (1 mg/mL) in Tris buffer with 5% D2O and ^1H spectra was collected using double solvent suppression with excitation sculpting and presaturation (zqesgppepr) with extended delay d1 = 8 s to allow for complete relaxation of nuclei.
Due to the nature of interaction and the invisibility of the bound state line, the width ratio was estimated from the fit, and it was used for all proton signals. This value was different for each combination of AMP and bacterial sample, and it is noted in the Supplementary Materials.
For the live cell NMR, the same E. coli strains as for the MIC testing (see above) were used. In addition, the ATCC 25922 cell lysate was used to observe the effect the release of intracellular components has on peptide binding. To measure the initial AMP:bacterial cell binding, we titrated an increasing number of cells into a known and fixed concentration of AMP and monitored the signal attenuation of the peptide (Figure 4A,B). From this, we have extracted the KD for each AMP towards the bacteria using the method developed by Shortridge et al. (2008) (Figure 4C), which allows us to estimate the binding affinity based on signal broadening (see Section 2).

Row | SMILES | γB/γF-1 ratio (line widths of bound and free AMP, from fit) [1] | γB/γF-1 ratio (line widths of bound and free AMP, from fit) [2]
1 | CC(C)C[C@@H]1NC(=O)[C@@H](CCCNC(=N)N)NC(=O)[C@H](CCCCN)NC(=O)[C@H](CC(N)=O)NC(=O)[C@@H](Cc2c[nH]c3ccccc23)NC(=O)[C@H](Cc2c[nH]c3ccccc23)NC1=O [c(LWwNKr)] (HELM PEPTIDE1{L.W.[dW].N.K.[dR]}$PEPTIDE1,PEPTIDE1,1:R1-6:R2$$$V2.0) | 7.830 | 0.035
2 | NCCCC[C@@H]1NC(=O)[C@H](Cc2c[nH]c3ccccc23)NC(=O)[C@H](CCCCN)NC(=O)[C@H](Cc2c[nH]c3ccccc23)NC(=O)[C@H](CCCCN)NC(=O)[C@H](Cc2c[nH]c3ccccc23)NC1=O [c(WKWKWK)] (HELM PEPTIDE1{W.K.W.K.W.K}$PEPTIDE1,PEPTIDE1,1:R1-6:R2$$$V2.0) | 7.127 | 0.044
3 | N=C(N)NCCC[C@@H]1NC(=O)[C@H](CCCNC(=N)N)NC(=O)[C@H](Cc2c[nH]c3ccccc23)NC(=O)[C@H](Cc2c[nH]c3ccccc23)NC(=O)[C@H](Cc2c[nH]c3ccccc23)NC(=O)[C@H](CCCNC(=N)N)NC1=O [c(WWWRRR)] (HELM PEPTIDE1{W.W.W.R.R.R}$PEPTIDE1,PEPTIDE1,1:R1-6:R2$$$V2.0) | 0.247 | 0.216
4 | N=C(N)NCCC[C@@H]1NC(=O)[C@H](Cc2c[nH]c3ccccc23)NC(=O)[C@H](CCCNC(=N)N)NC(=O)[C@H](Cc2c[nH]c3ccccc23)NC(=O)[C@H](CCCNC(=N)N)NC(=O)[C@H](Cc2c[nH]c3ccccc23)NC1=O [c(WRWRWR)] (HELM PEPTIDE1{W.R.W.R.W.R}$PEPTIDE1,PEPTIDE1,1:R1-6:R2$$$V2.0) | 2.900 | 0.275
5 | NCCCC[C@@H]1NC(=O)[C@H](CCCCN)NC(=O)[C@H](Cc2c[nH]c3ccccc23)NC(=O)[C@H](Cc2c[nH]c3ccccc23)NC(=O)[C@H](Cc2c[nH]c3ccccc23)NC(=O)[C@H](CCCCN)NC1=O [c(WWWKKK)] (HELM PEPTIDE1{W.W.W.K.K.K}$PEPTIDE1,PEPTIDE1,1:R1-6:R2$$$V2.0) | 0.297 | 0.225

From PMC10377513, “Goldilocks Dilemma: LPS Works Both as the Initial Target and a Barrier for the Antimicrobial Action of Cationic AMPs on E. coli” (Biomolecules, 2023)
